Data as given in US20260240976A1, “T[…] VACCINES BASED ON VALIDATED TARGET EPITOPES” (Deutsches Krebsforschungszentrum Stiftung des öffentlichen …, priority 2023, published 2026).
The amount applied is not stated for every result.

The substances below were run on HPV16-positive cells (assay: HLA immunoprecipitation and LC-MS of HLA-presented peptides). Conditions: HLA restriction A01.
Format: cell-based, human
Parameters: key: +: presentation: HLA-presentation of the peptide by HPV16-positive cells shown by MS; +*: *highlights data from published resources

Row | Substance | presentation: HLA-presentation of the peptide by HPV16-positive cells shown by MS
1 | 2 (HGDTPTLHEY; Human papillomavirus 16) [compound 2] | +

Same assay, conditions: HLA restriction A02

Row | Substance | presentation: HLA-presentation of the peptide by HPV16-positive cells shown by MS
2 | 18 (RTLEDLLMGT; Human papillomavirus 16) [compound 18] | +

Same assay, conditions: HLA restriction A03

Row | Substance | presentation: HLA-presentation of the peptide by HPV16-positive cells shown by MS
3 | 57 (HLDKKQRFH; Human papillomavirus 16) [compound 57] | +
4 | 53 (CVYCKQQLLR; Human papillomavirus 16) [compound 53] | +

Same assay, conditions: HLA restriction A11

Row | Substance | presentation: HLA-presentation of the peptide by HPV16-positive cells shown by MS
5 | 56 (IILECVYCK; Human papillomavirus 16) [compound 56] | +
6 | 53 (CVYCKQQLLR; Human papillomavirus 16) [compound 53] | +

Same assay, conditions: HLA restriction A24

Row | Substance | presentation: HLA-presentation of the peptide by HPV16-positive cells shown by MS
7 | 96 (AHYNIVTF; Human papillomavirus 16) [compound 96] | +
8 | 81 (RAHYNIVTF; Human papillomavirus 16) [compound 81] | +
9 | 80 (VYCKQQLL; Human papillomavirus 16) [compound 80] | +

Same assay, conditions: HLA restriction B07

Row | Substance | presentation: HLA-presentation of the peptide by HPV16-positive cells shown by MS
10 | 140 (RPGKLPQL; Human papillomavirus 16) [compound 140] | +
11 | 98 (TPTLHEYML; Human papillomavirus 16) [compound 98] | +
12 | 97 (RPRKLPQL; Human papillomavirus 16) [compound 97] | +
13 | 81 (RAHYNIVTF; Human papillomavirus 16) [compound 81] | +

Same assay, conditions: HLA restriction B15

Row | Substance | presentation: HLA-presentation of the peptide by HPV16-positive cells shown by MS
14 | 112 (SVYGTTLEQQY; Human papillomavirus 16) [compound 112] | +
15 | 113 (LQPETTDLYC; Human papillomavirus 16) [compound 113] | +
16 | 108 (AFRDLCIVY; Human papillomavirus 16) [compound 108] | +
17 | 110 (GQAEPDRAHY; Human papillomavirus 16) [compound 110] | +
18 | 114 (LQPETTDLYCY; Human papillomavirus 16) [compound 114] | +
19 | 107 (KQQLLRREVY; Human papillomavirus 16) [compound 107] | +
20 | 144 (AHYNIVTF; Human papillomavirus 16) [compound 144] | +
21 | 109 (LQPETTDLY; Human papillomavirus 16) [compound 109] | +
22 | 81 (RAHYNIVTF; Human papillomavirus 16) [compound 81] | +
